The list shows a part of the results, in another mix than the full data. Some structures show a salt or complex split into parts, the way the source records it. Calls of active or inactive are those of the source. No stated cut-off is given here; in the data, active means activity change below about -50%; inconclusive means between about -30% and that limit; inactive means weaker than that.
On the % scale 0 is the no-effect control and ±100 the full control effect.

By UniProt entry, the sequences of proteins in these tests, tags left out.
UniProt Q9GZU1, whole entry: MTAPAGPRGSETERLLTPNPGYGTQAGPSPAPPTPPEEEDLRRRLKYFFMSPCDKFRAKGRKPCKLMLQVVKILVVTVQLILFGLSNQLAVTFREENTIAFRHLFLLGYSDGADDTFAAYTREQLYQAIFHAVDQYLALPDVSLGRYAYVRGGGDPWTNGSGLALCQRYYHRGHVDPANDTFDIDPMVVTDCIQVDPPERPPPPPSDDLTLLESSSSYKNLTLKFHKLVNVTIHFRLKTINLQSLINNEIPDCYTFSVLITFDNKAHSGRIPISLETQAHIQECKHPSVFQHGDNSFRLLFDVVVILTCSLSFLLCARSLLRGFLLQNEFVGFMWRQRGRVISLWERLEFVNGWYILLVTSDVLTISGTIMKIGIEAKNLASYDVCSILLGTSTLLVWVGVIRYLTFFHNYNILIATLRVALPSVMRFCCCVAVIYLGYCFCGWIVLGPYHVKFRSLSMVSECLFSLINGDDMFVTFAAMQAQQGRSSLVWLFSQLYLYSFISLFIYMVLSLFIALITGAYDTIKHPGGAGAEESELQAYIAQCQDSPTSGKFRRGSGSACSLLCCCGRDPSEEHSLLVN

The assay deals with Mucolipin-1 (Homo sapiens) (UniProt Q9GZU1). Kind of assay: qHTS for Inhibitors of the Human Mucolipin Transient Receptor Potential 1 (TRPML1). The settings on record: TRPML1-inducible cells, Ca2+ dye fluorescence, FDSS; stronger effect = lower value; inhibition of EC80 agonist-evoked calcium signal. The text has this:
Mutations of human Mucolipin transient receptor potential 1 (TRPML1) cause type IV mucolipidosis (ML4), a devastating neurodegenerative disease in young children. […] Currently, there is no treatment for ML4. […] Under physiological conditions, TRPMLs regulate membrane trafficking by transducing information about PI(3,5)P2 levels into changes in juxtaorganellar Ca2+, thereby triggering membrane fusion/fission events in the late endocytic pathways (endolysosomal trafficking). In addition, TRPML1 mediates release of Fe2+ from late endosomes and lysosomes, which is essential for cellular iron metabolism. Thus, impaired ion (Ca2+ and Fe2+) homeostasis underlies lysosomal dysfunction and ML4 phenotypes. In ML4 cells, the problem is twofold. First, defective Ca2+-dependent membrane trafficking due to TRPML1-deficiency causes accumulation of lipids and other bio-materials in the lysosome. The second strike comes from the lysosomal iron overload (due to impairment of TRPML1's Fe2+ conductivity), which converts the accumulated materials into the nondegradable (resistant to lysosomal degradation) lipofuscin (also called aging pigment) in the lysosome. Lipofuscin accumulation dramatically compromises the functions of lysosomes.
Niemann-Pick type C (NPC) disease is another lysosome storage disease (LSD) with severe neurodegeneration during the childhood. Currently, there is no cure for NPC. […] Thus, TRPML1 is likely to be an essential regulator of lysosome ion homeostasis. We specifically hypothesize that stimulating TRPML1's Fe2+/Ca2+ channel activity in the lysosome using synthetic agonists can alleviate neurodegeneration associated with ML4 or NPC.
To this end, a high throughput screen was developed in a miniaturized format to screen against the Molecular Libraries Small Molecule Repository (MLSMR) to find small molecules that act either as inhibitors or agonist against the TRPML1 channel.
NIH Chemical Genomics Center [NCGC]
NIH Molecular Libraries Probe Centers Network [MLPCN]
Assay Submitter (PI): Haoxing Xu, University of Michigan Ann Arbor
TRPML1-DL cells are dissociated from flasks, counted and, brought up to a density of 500,000 cells per mL of media containing a 1X Tet inducer. Using a Multidrop Combi, 3 uL of this cell solution is dispensed to each well of a 1536 TC treated, black, clear bottom hi base plate for a final cell density of 1,500 cells per well. The assay plates are incubated overnight (approximately 16 hours) at 37 degrees C and 5% CO2. Using a Multidrop Combi, 2 uL of ABD Ca8 no wash dye plus quencher is added to each well. The assay plates incubate at room temperature in the dark for 45-90 minutes. The assay plate is read on the FDSS using the following protocol: 10 second baseline read, 23 nL of compounds and controls are added using 1536 pintool, agonist read for 110 seconds, 1 uL EC80 addition (4 uM final 54-4 diluted in media), antagonist read for 110 seconds.
On the technique in general: In qHTS, concentration-response curves come from the screen itself.
For `CC(C)(C)OC(=O)N1CCC(N(C(=O)c2ccccc2)c2ccc(F)cc2)CC1`, the activity change, negative = inhibition was inactive: 10.4%.

With `COc1ccc(C(=O)NCC2(N3CCCCC3)CCCCC2)c(OC)c1OC`, the activity change, negative = inhibition was inactive: 16.4%. For `CSc1ccccc1C(=O)NCC1(N2CCCCC2)CCCCC1` the value was inactive: 13.6%; for `Cc1cccc(NC2(C#N)CCN(Cc3ccccc3)CC2)c1`, inactive: -12.1%; for `O=C(NCC1(N2CCOCC2)CCCCC1)c1cc2ccccc2o1`, inactive: -4.95%. As to `O=c1[nH]c2ccccc2n1C1CCN(C(c2ccccc2OC(F)(F)F)c2nnnn2C2CCCCC2)CC1` (stereo not given), the activity change, negative = inhibition is inactive: 32.5%.

As to `O=C(NCC1(N2CCCCC2)CCCCC1)c1ccc(Cl)nc1`, the activity change, negative = inhibition is inactive: 2.76%.

For `Cc1cc(C)cc(N(C(=O)c2ccccc2)C2CCN(C(=O)OC(C)(C)C)CC2)c1`, the activity change, negative = inhibition was inactive: 17.4%. For `CCOC(=O)N1CCC(Nc2ccc(OC)cc2)CC1` the value was inactive: -14.4%; for `O=C(OC1CN2CCC1CC2)C1c2ccccc2Oc2ccccc21` (stereo not given), inactive: 4.99%; for `O=c1[nH]c2ccccc2n1C1CCN(C(c2cc3ccccc3o2)c2nnnn2C2CCCCC2)CC1` (stereo not given), inactive: 19.8%.

With `O=C(NCC1(N2CCCCC2)CCCCC1)c1ccc(Cl)s1`, the activity change, negative = inhibition is inactive: -11.8%.

Regarding `O=C1C(O)=C([N+](=O)[O-])C(=O)C(O)=C1[N+](=O)[O-]`, the activity change, negative = inhibition was inactive: 16%.

Turning to `COc1ccc(Cl)cc1C(=O)NCC1(N2CCOCC2)CCCCC1`, the activity change, negative = inhibition is inactive: -18%. To `COc1ccc(CN(CCCl)CCCl)cc1Cl` belongs inactive: 25.9%; to `O=[N+]([O-])c1cc([N+](=O)[O-])c(OC2CCCCC2O)c([N+](=O)[O-])c1` (stereo not given), inactive: 10.6%. For `CN(C)c1cccc(C(=O)NCC2(N3CCCCC3)CCCCC2)c1`, the activity change, negative = inhibition was inactive: 1.78%. To `CC(C)c1ccc(NC2CCN(C(=O)OC(C)(C)C)CC2)cc1` belongs inactive: 8.75%. For `COc1cc(OC)c(C(=O)NCC2(N(C)C)CCCCC2)cc1OC` the value was inactive: 19.3%; for `O=C(NCC1(N2CCOCC2)CCCCC1)c1cc(F)c(F)cc1Cl`, inactive: 0.465%. As to `CCC(c1nnnn1C(C)(C)C)N1CCC(n2c(=O)[nH]c3ccccc32)CC1` (stereo not given), the activity change, negative = inhibition is inactive: 3.87%.

For `COc1ccc2c(c1O)-c1c(O)c(OC)cc3c1[C@H](C2)[N+](C)(C)CC3.O=[N+]([O-])c1cc([N+](=O)[O-])c([O-])c([N+](=O)[O-])c1[O-]`, the activity change, negative = inhibition was inactive: 2.93%. For `O=C(NCC1(N2CCCCC2)CCCCC1)c1cncc(Br)c1` the value was inactive: 2.01%; for `CN1CCC(Nc2cccc(F)c2)CC1`, inactive: 18%. For `O=C(OC1CN2CCC1CC2)c1ccc([N+](=O)[O-])cc1` (stereo not given) the value was inactive: 2.26%; for `Cc1ccc(C(=O)NCC2(N(C)C)CCCCC2)o1`, inactive: 26.9%; for `CCCCOc1ccccc1C(=O)NCC1(N2CCOCC2)CCCCC1`, inactive: 16%. `CCCOc1ccc(C(=O)NCC2(N(C)C)CCCCC2)cc1OC`: the activity change, negative = inhibition was inactive: 1.88%. For `O=C(NCC1(N2CCOCC2)CCCCC1)c1ccccc1Br` the value was inactive: 19.4%; for `O=[N+]([O-])c1cc([N+](=O)[O-])c(Nc2ccc(Cl)cc2)c([N+](=O)[O-])c1`, inactive: 16.4%; for `O=C(NCC1(N2CCCCC2)CCCCC1)c1ccc(OC(F)F)cc1`, inactive: 6.72%. For `CSc1ccc(C(=O)NCC2(N3CCOCC3)CCCCC2)cc1` the value was inactive: 16.8%; for `CCOc1ccc(C(=O)NCC2(N3CCOCC3)CCCCC2)cc1`, inactive: -0.496%. Take `O=C(NCC1(N2CCCCC2)CCCCC1)c1cccc([N+](=O)[O-])c1`: the activity change, negative = inhibition is inactive: 24%. For the compound `CCN1CCC(Nc2ccc(Cl)cc2)CC1`, the activity change, negative = inhibition is inactive: 21.3%. Turning to `N#CC1(Nc2ccccc2)CCN(CCc2ccccc2)CC1`, the activity change, negative = inhibition was inactive: -2.29%. To `O=c1[nH]c2ccccc2n1C1CCN(C(c2ccccc2OC(F)(F)F)c2nnnn2C2CCCC2)CC1` (stereo not given) belongs inactive: -8.58%. To `CCCOc1cccc(C(=O)NCC2(N3CCOCC3)CCCCC2)c1` belongs inactive: 9.27%; to `O=C(NCC1(N2CCCCC2)CCCCC1)c1cccc(C(F)(F)F)c1`, inactive: -15.2%; to `O=[N+]([O-])c1cc([N+](=O)[O-])c(NCC2CCS(=O)(=O)C2)c([N+](=O)[O-])c1` (stereo not given), inactive: 1.74%.

For the compound `CN1CCN(CCOC(=O)C(O)(c2ccccc2)c2ccccc2)CC1`, the activity change, negative = inhibition was inactive: -2.02%. For `CC(C)c1ccc(C(=O)NCC2(N3CCOCC3)CCCCC2)cc1` the value was inactive: -12%; for `COc1ccc(NC2CCN(C(=O)OC(C)(C)C)CC2)cc1`, inactive: -3.86%. In the case of `COc1cc(C(=O)NCC2(N3CCCCC3)CCCCC2)ccc1OC(F)F`, the activity change, negative = inhibition was inactive: 12.4%. To `O=C(NCC1(N2CCOCC2)CCCCC1)c1cc(=O)[nH]c2ccccc12` belongs inactive: 6.39%.

The record behind these values is PubChem BioAssay AID624415 (National Center for Advancing Translational Sciences (NCATS), 2012).
